Measured values from several laboratories, pooled; numbers as filed in NIAID ChemDB.

Shared fields: target-level tests; species: Hepatitis C virus

Percent inhibition refers to the dose given; in toxicity tests it is the harm to the cells.

smiles | conditions | dose | method | target | read-out | strain | value
NC(=O)[C@H](CC(=O)O)NC(=O)[C@H](CC1CCCCC1)NC(=O)[C@@H]1CCCN1C(=O)[C@H](CS)NC(=O)[C@H](CC1CCCCC1)NC(=O)[C@@H](N)CCC(=O)O | - | - | - | NS3/NS4A protease | IC50 | - | >100 µM
COc1ccc(C(Cc2ccccc2)NC(=O)Nc2cccc(-c3nc(C(=O)O)c(O)c(=O)[nH]3)c2)cc1OC | - | - | - | HCV polymerase | IC50 | - | <100 µM
COc1cc(OC)c2c(=O)c(OC)c(-c3ccc(OC)c(OC)c3)oc2c1 | - | 20 µM | SYBR Green | Replicase complex | inhibition | J4 | 4%
O=C1/C(=C\c2cc(F)ccc2F)SC(=S)N1NS(=O)(=O)c1ccccc1 | - | - | - | NS5B polymerase | IC50 | - | ≤30 µM
CC(C)[C@H](N)C(=O)Nc1ccsc1-c1nc(C(=O)O)c(O)c(=O)[nH]1 | - | - | - | HCV polymerase | IC50 | - | <25 µM
C=CC1CC1(NC(=O)[C@@H]1C[C@@H](Oc2cc(-c3ccccc3)nc3cc(OC)ccc23)CN1C(=O)[C@H](CC1CCCCC1)NC(=O)OC(C)(C)C)C(=O)NS(=O)(=O)C1CC1 | - | - | - | NS3/NS4A protease | IC50 | BMS | <0.5 µM
CC[C@H](NC(=O)[C@@H](NC(=O)[C@@H](NC(=O)[C@H](CC(=O)O)NC(=O)[C@@H](N)CCC(=O)O)C(C)C)C(C)C)C(=O)N[C@H](CS)C(=O)O | - | - | - | NS3 protease | IC50 | - | 194 µM
O=C(OC[C@H]1O[C@@H](n2cnc3c(=O)[nH]cnc32)[C@H](O)[C@@H]1O)c1ccc(S(=O)(=O)F)cc1 | - | 300 µM | - | Nonstructural protein 3 NTPase/helicase | inhibition | - | 25%
COc1ccc(-c2ccc(/C=C3/SC(=S)NC3=O)s2)cc1 | - | - | - | NS5B polymerase | IC50 | - | ≤30 µM
CC(=O)N[C@@H](CC(=O)O)C(=O)N[C@@H](Cc1ccc([N+](=O)[O-])cc1)C(=O)N[C@@H](CC(C)C)C(=O)N[C@@H](CCC(=O)O)C(=O)N[C@@H](CC1CCCCC1)C(=O)N[C@@H](CS)C(=O)O | - | - | - | HCV NS3 protease | IC50 | - | 0.24 µM
CC(C)C[C@H](NC(=O)[C@H](CC(=O)O)NC(=O)[C@H](CC1CCCCC1)NC(=O)[C@@H]1CCCN1C(=O)[C@H](CS)NC(=O)[C@@H](N)CC1CCCCC1)C(N)=O | - | - | - | NS3/NS4A protease | IC50 | - | >100 µM
O=C(O)c1nc(-c2cccc(Cn3c(=O)oc4ccccc43)c2)[nH]c(=O)c1O | - | - | - | HCV polymerase | IC50 | - | <100 µM
N[C@@H](CC(=O)O)C(=O)N[C@@H](CCC(=O)O)C(=O)N[C@H](C(=O)N[C@@H](CCC(=O)O)C(=O)N[C@@H](CC1CCCCC1)C(=O)N[C@H](CS)C(=O)O)C(c1ccccc1)c1ccccc1 | - | - | - | NS3 protease | IC50 | - | 3.4 µM
C[C@@]1(O)[C@H](O)[C@@H](COP(=O)(O)OP(=O)(O)OP(=O)(O)O)O[C@H]1c1ccc2c(N)ncnn12 | - | - | nucleotide incorporation | Nonstructural protein 5B | IC50 | GT2a | 0.39 µM
O=C(Nc1ccsc1-c1nc(C(=O)O)c(O)c(=O)[nH]1)c1cc(F)cc(F)c1 | - | - | - | HCV polymerase | IC50 | - | <25 µM
O=C(NO)c1sc2ccccc2c1S(=O)(=O)c1ccccc1 | genotype 1b | 50 µM | scintillation proximity / radiometric | Nonstructural protein 5B | inhibition | - | <15%
CC[C@H](C)[C@H](NC(=O)[C@H](CC(C)C)NC(=O)[C@@H](CCC(=O)O)NC(=O)[C@H](CC(=O)O)NC(C)=O)C(=O)N[C@@H](CC1CCCCC1)C(=O)N[C@@H](CS)C(=O)O | - | - | - | HCV NS3 protease | IC50 | - | 0.015 µM
O=c1cc(-c2ccccc2)oc2ccccc12 | - | 20 µM | SYBR Green | Replicase complex | inhibition | J4 | 13.1%
C=C[C@@H]1C[C@]1(NC(=O)[C@@H]1C[C@@H](Oc2cc(-c3ccccc3)nc3cc(OC)ccc23)CN1C(=O)[C@@H](NC(=O)OC(C)(C)C)C(C)(C)C)C(=O)NS(=O)(=O)c1ccc(-c2ccccc2)cc1 | - | - | - | NS3/NS4A protease | IC50 | BMS | <0.5 µM
CC(=O)N[C@@H](CC(=O)O)C(=O)N[C@@H](C(=O)N[C@@H](CC(C)C)C(=O)N[C@@H](CCC(=O)O)C(=O)N[C@@H](CC1CCCCC1)C(=O)N[C@@H](CS)C(=O)O)C(C)C | - | - | - | HCV NS3 protease | IC50 | - | 0.47 µM
CSCC[C@H](NC(=O)[C@H](CCC(=O)O)NC(=O)[C@@H](CC(=O)O)NC(C)=O)C(=O)N[C@@H](CCC(=O)O)C(=O)N[C@@H](CCC(=O)O)C(=O)N[C@@H](CS)C(=O)O | - | - | - | NS3 serine protease | IC50 | - | 1 µM
C[C@@]1(O)[C@H](O)[C@@H](COP(=O)(O)OP(=O)(O)OP(=O)(O)O)O[C@H]1c1cnc2c(N)ncnn12 | - | - | nucleotide incorporation | Nonstructural protein 5B | IC50 | GT-1b Con1 | 0.55 µM
O=C(Nc1ccc(Oc2ccc(Cl)c3ccccc23)cc1)c1ccccc1NS(=O)(=O)c1ccc(Cl)cc1 | - | - | - | NS3 serine protease | IC50 | - | 6.5 µM
O=C(O)c1nc(-c2sccc2NC(=O)C2CCc3ccccc32)[nH]c(=O)c1O | - | - | - | HCV polymerase | IC50 | - | <25 µM
CSCC[C@H](NC(=O)[C@H](CCC(=O)O)NC(=O)CCC(=O)O)C(=O)N[C@@H](CCC(=O)O)C(=O)N[C@@H](CCC(=O)O)C(=O)N[C@@H](CS)C(=O)O | - | - | - | HCV NS3 protease | IC50 | - | 1.3 µM
O=c1c(O)c(-c2cc(O)c(O)c(O)c2)oc2cc(O)ccc12 | - | 20 µM | SYBR Green | Replicase complex | inhibition | J4 | 55.9%
COC(=O)c1nc(-c2sccc2NC(=O)OCc2cc(Br)ccc2OC)[nH]c(=O)c1O | - | - | - | HCV polymerase | IC50 | - | <50 µM
CC(C)[C@H](NC(=O)[C@H](CC(=O)O)NC(=O)[C@@H](N)CCC(=O)O)C(=O)N[C@H](C(=O)N(C)CC(=O)N[C@@H](CS)C(=O)O)C(C)C | - | - | - | NS3 protease | IC50 | - | 21 µM
CC[C@H](C)[C@H](NC(=O)[C@@H](CC(=O)O)NC(=O)[C@H](CC(=O)O)NC(C)=O)C(=O)N[C@H](C(=O)N1CCC[C@H]1C(=O)N[C@@H](CS)C(=O)O)C(C)C | - | - | - | NS3 serine protease | IC50 | - | 4 µM
CSCC[C@H](NC(=O)[C@H](CCC(=O)O)NC(=O)[C@@H](N)CC(=O)O)C(=O)N[C@@H](CCC(=O)O)C(=O)N[C@@H](CCC(=O)O)C(=O)NCC(=O)O | - | - | - | NS3 protease | IC50 | - | 62 µM
CC(=O)N[C@@H](CC(=O)O)C(=O)N[C@@H](CCC(=O)O)C(=O)N[C@@H](CC1CCCCC1)C(=O)N[C@@H](CCC(=O)O)C(=O)N[C@@H](CC1CCCCC1)C(=O)N[C@@H](CS)C(=O)O | - | - | - | HCV NS3 protease | IC50 | - | 0.14 µM
Cc1nc(N)c2ncn([C@@H]3O[C@H](COC(=O)c4ccc(S(=O)(=O)F)cc4)[C@@H](O)[C@H]3O)c2n1 | - | 300 µM | - | Nonstructural protein 3 NTPase/helicase | inhibition | - | 46%
CSCC[C@H](NC(=O)[C@H](CCC(=O)O)NC(=O)[C@@H](N)CC(=O)O)C(=O)N[C@@H](CCC(=O)O)C(=O)N[C@@H](CCC(=O)O)C(=O)NCCC(=O)O | - | - | - | NS3 protease | IC50 | - | >200 µM
C=C[C@@H]1C[C@]1(NC(=O)[C@@H]1C[C@@H](Oc2cc(-c3ccccc3)nc3cc(OC)ccc23)CN1C(=O)[C@@H](NC(=O)Oc1ccc(OC)cc1)C(C)(C)C)C(=O)NS(=O)(=O)C1CC1 | - | - | - | NS3/NS4A protease | IC50 | BMS | <0.05 µM
Cn1c(=O)c(C2=NS(=O)(=O)c3ccccc3N2)c(O)c2ccccc21 | - | - | - | RNA-dependent RNA polymerase | IC50 | - | >50 µM
C=C[C@@H]1C[C@]1(NC(=O)[C@@H]1C[C@@H](Oc2cc(-c3ccccc3)nc3cc(OC)ccc23)CN1C(=O)[C@@H](NC(=O)CF)C(C)(C)C)C(=O)NS(=O)(=O)C1CC1 | - | - | - | NS3/NS4A protease | IC50 | BMS | <0.05 µM
Cc1ccc(S(=O)(=O)NC(=O)Nc2cscc2-c2nc(C(=O)O)c(O)c(=O)[nH]2)cc1 | - | - | - | HCV polymerase | IC50 | - | <25 µM
CSCC[C@H](NC(=O)[C@H](CCC(=O)O)NC(=O)[C@@H](N)CC(=O)O)C(=O)N[C@@H](CCC(=O)O)C(=O)N[C@@H](CC(C)C)C(=O)N[C@@H](CS)C(=O)O | - | - | - | NS3 protease | IC50 | - | 1.1 µM
O=C1/C(=C\c2ccccc2)SC(=S)N1NS(=O)(=O)c1ccccc1 | - | - | - | NS5B polymerase | IC50 | - | ≤30 µM
O=C(CCC(=O)Nc1ccsc1-c1nc(C(=O)O)c(OCc2cc(F)ccc2F)c(=O)[nH]1)NO | - | - | - | HCV polymerase | IC50 | - | <50 µM

The first 3 rows once more:

smiles | conditions | dose | method | target | read-out | strain | value
NC(=O)[C@H](CC(=O)O)NC(=O)[C@H](CC1CCCCC1)NC(=O)[C@@H]1CCCN1C(=O)[C@H](CS)NC(=O)[C@H](CC1CCCCC1)NC(=O)[C@@H](N)CCC(=O)O | - | - | - | NS3/NS4A protease | IC50 | - | >100 µM
COc1ccc(C(Cc2ccccc2)NC(=O)Nc2cccc(-c3nc(C(=O)O)c(O)c(=O)[nH]3)c2)cc1OC | - | - | - | HCV polymerase | IC50 | - | <100 µM
COc1cc(OC)c2c(=O)c(OC)c(-c3ccc(OC)c(OC)c3)oc2c1 | - | 20 µM | SYBR Green | Replicase complex | inhibition | J4 | 4%

ICn is the concentration giving n% inhibition. Blank or dashed fields: not listed here. Neighbouring rows are from separate reports.